Target: Human immunodeficiency virus type 1 reverse transcriptase (Human immunodeficiency virus 1, UniProt Q72547)
Test: Inhibition of wild type HIV-1 reverse transcriptase assessed as reduction in biotin-dUTP incorporation in presence of template-primer incubated for 60 mins followed by transferring to streptavidin-coated plate and further incubation for 60 mins by ELISA

IC50: 59 nM
Structure (SMILES): Cc1cc(C#N)cc(C)c1Oc1nc(Nc2ccc(C#N)cc2)nc(N)c1Br [ETRAVIRINE]

Source: ChEMBL document CHEMBL4819135, “Design, synthesis and anti-HIV evaluation of novel 5-substituted diarylpyrimidine derivatives as potent HIV-1 NNRTIs” (Bioorg Med Chem, 2021)
